Data from patent EP1073463B1.

Molecular target: human CD3 on Jurkat cells (human) (UniProt P07766)
Assay: cell-based or functional assay

UCHT1-CRM9 immunotoxin (chemical conjugate of UCHT1 and CRM9) (from UniProt P00588 33-567)
Protein synthesis (% of controls), Jurkat cells, 1 x 10^-10 M, no serum (% of controls): 5
